Data as given in PMC4322620 (Frontiers in Pharmacology, 2015).

Chains of the proteins cited; added tags and fusions are not shown.
UniProt P30989, whole entry: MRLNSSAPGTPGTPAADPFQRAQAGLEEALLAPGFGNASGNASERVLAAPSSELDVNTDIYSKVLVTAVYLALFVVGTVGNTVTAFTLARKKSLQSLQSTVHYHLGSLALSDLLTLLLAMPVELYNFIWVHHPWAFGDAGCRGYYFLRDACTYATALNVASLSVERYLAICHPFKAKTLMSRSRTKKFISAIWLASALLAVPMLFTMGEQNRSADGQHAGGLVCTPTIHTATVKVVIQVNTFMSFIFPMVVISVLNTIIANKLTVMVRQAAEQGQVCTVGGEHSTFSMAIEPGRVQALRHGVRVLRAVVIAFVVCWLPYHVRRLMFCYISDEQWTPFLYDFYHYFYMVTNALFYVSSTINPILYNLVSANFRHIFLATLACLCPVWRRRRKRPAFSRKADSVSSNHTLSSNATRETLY

Experiments:
thermal pain = assay: Hot plate test; type: in vivo, mouse; details: mice, 4 mg/kg i.p. single dose, 55°C, n = 8 per group, mean ± SEM
formalin-induced pain [1] = details: ref Allen et al., 2007; cited from earlier work
formalin-induced pain [2] = details: mice, intrathecal administration; ref Craig et al., 2002; Han et al., 2008; cited from earlier work
hNTS1 = details: read-out: agonist potency (phosphoinositide accumulation); CHO cells expressing hNTS1; ref Craig et al. (1999); cited from earlier work
NTS1 (HT-29 cells) = NTS1 (HT-29 cells) (Homo sapiens, UniProt P30989); assay: Calcium activation assay (intracellular calcium mobilization); type: cell-based; details: Fluo-4-NW calcium fluorescence, peptide 10 μM–10 pM, % of 1 μM peak response, quadruplicate experiments
[3] = biological target: neurotensin receptors (HT-29 cells) (Homo sapiens, UniProt P30989); assay: Desensitization of neurotensin receptor activation (calcium mobilization after pre-exposure); type: cell-based
acute thermal pain = assay: Tail flick test; type: in vivo, mouse; details: mice, single dose 4 mg/kg i.p.
6 Hz (32 mA) seizures = assay: 6 Hz (32 mA) mouse model of epilepsy; details: doses 8–20 mg/kg, i.p., unpublished data

Row | Structure (SMILES) | Hot plate (latency to hindlimb response) (thermal pain) [s] | ED50 in rat formalin assay (formalin-induced pain [1]) [nmol] | ED50 analgesic potency in formalin assay (formalin-induced pain [2]) [pmol] | pEC50 (hNTS1) | pEC50 (NTS1 (HT-29 cells)) | DC50 ([3]; 10 min pre-exposure (10 μM–100 pM), wash, 15 min without peptide, re-exposure to same peptide at 1 μM, calcium mobilization, quadruplicate experiments) [nM] | DC50/EC50 ([3]; ratio of desensitization to agonist potency) | analgesic activity in the tail flick assay (in words) (acute thermal pain) | suppressing seizures in the 6 Hz (32 mA) model (6 Hz (32 mA) seizures)
1 | CC[C@H](C)[C@H](NC(=O)[C@H](Cc1ccc(O)cc1)NC(=O)[C@@H]1CCCN1C(=O)[C@H](CCCCN)NC(=O)[C@H](CCCCN)NC(=O)[C@@H](NC(=O)[C@H](C)NC(=O)[C@H](CC(N)=O)NC(=O)[C@H](CO)NC(=O)CNC(=O)CNC(=O)[C@H](CCC(=O)O)NC(=O)[C@H](CCC(=O)O)NC(=O)[C@H](CO)NC(=O)[C@@H]1CCC(=O)N1)[C@@H](C)O[C@H]1O[C@H](CO)[C@H](O)[C@H](O[C@@H]2O[C@H](CO)[C@H](O)[C@H](O)[C@H]2O)[C@H]1NC(C)=O)C(=O)N[C@@H](CC(C)C)C(=O)O [Contulakin-G] | 4.94 ± 0.79 | 0.07 | 1 | 6.02 |  |  |  |  | 
2 | CC[C@H](C)[C@H](NC(=O)[C@H](Cc1ccc(O)cc1)NC(=O)[C@@H]1CCCN1C(=O)[C@H](CCCCN)NC(=O)[C@H](CCCCN)NC(=O)[C@H](CCC(=O)NC12CC3CC(C)(CC(C)(C3)C1)C2)NC(=O)[C@H](CCCCN)NC(=O)[C@H](CC(N)=O)NC(=O)[C@H](CO)NC(=O)CNC(=O)CNC(=O)[C@H](CCC(=O)O)NC(=O)[C@H](CCC(=O)O)NC(=O)[C@H](CO)NC(=O)[C@@H]1CCC(=O)N1)C(=O)N[C@@H](CC(C)C)C(=O)O [memantine-Contulakin-G] | 8.09 ± 1.06 |  |  |  | 7.36 | 1510 | 35 | active | active

pEC50: −log10 of the molar value. Only a part of the results on these compounds is given; other tests are left out. Unless stated, no cut-off for active and inactive is given here.
